The match of structure and compound is tentative.
Target: MtDXPS (Mycobacterium tuberculosis, UniProt P9WNS3)
Experiment: tight-binding Morrison Ki* determination against MtDXPS (Dynafit)
Type: biochemical
Details: Table 1B, oxime derivatives

Protein sequences, listed by entry. Tags and fused reporters are not part of them.
UniProt P9WNS3, whole entry: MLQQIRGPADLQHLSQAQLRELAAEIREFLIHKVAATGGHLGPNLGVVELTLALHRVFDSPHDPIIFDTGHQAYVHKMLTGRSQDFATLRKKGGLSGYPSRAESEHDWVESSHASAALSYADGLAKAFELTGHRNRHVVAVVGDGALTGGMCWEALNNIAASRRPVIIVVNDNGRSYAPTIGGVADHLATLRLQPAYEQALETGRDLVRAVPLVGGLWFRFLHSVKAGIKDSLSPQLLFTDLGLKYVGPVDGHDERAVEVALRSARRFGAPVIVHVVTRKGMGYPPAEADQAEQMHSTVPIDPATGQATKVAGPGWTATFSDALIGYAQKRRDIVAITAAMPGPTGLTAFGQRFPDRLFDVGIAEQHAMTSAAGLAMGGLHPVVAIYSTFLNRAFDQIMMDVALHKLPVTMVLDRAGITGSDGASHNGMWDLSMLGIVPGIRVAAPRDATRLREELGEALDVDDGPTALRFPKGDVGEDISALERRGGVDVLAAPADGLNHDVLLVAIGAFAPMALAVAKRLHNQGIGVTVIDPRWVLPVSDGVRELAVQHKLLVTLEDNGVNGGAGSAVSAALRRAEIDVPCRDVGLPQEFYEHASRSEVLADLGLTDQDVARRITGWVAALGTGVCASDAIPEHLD

O/N=C(\Cc1ccc(Cl)cc1)c1ccccc1
Ki: 1.1 µM

Source: paper PMC9491098, “Discovery of novel drug-like antitubercular hits targeting the MEP pathway enzyme DXPS by strategic application of ligand-based virtual screening” (Chemical Science, 2022)
